Results deposited as PubChem BioAssay AID1259414 (Drosophila RNAi Screening Center, 2018)
Assay: 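Fly genes that alter Wolbachia amount inside host cells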 (primary screen). Cells: Drosophila JW18 cells infected with Wolbachia. Reagents: long dsRNA against Drosophila genes, 0.25 µg dsRNA per well of a 384-well plate. Duration: 5 days. Challenge: cells persistently infected with Wolbachia before knock-down; no added drug. Measurement: 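Imaged fluorescence in situ signal for Wolbachia 23S rRNA per DAPI-counted host cell, given as a robust z-score within each plate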. Scale: Wolbachia per cell robust z: higher = more Wolbachia per host cell than the plate typical. Hit rule: 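Hit when robust z is 1.5 or more, or -1.5 or less, in at least two of three replicates; excludes dsRNAs with several or no targets, genes not expressed in JW18 and well A1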.
In all, the deposit lists about 24,000 reagents; this is an unselected part of those that have a named target and a result. Over the whole deposit, about 1,210 (5%) are marked active. 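Inactive calls also include excluded dsRNAs with several or no targets, genes unexpressed in JW18, and well A1, regardless of score.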 A number with no mark means an inactive call. Names joined by + are all predicted targets of the reagent. No sequences are given here.

predicted target | DRSC id | Wolbachia per cell robust z, rep 1 | Wolbachia per cell robust z, rep 2 | Wolbachia per cell robust z, rep 3
TBC1d7 (TBC1 domain family member 7) | DRSC15985 | -4.66 | 0.781 | -0.555
CG6928 | DRSC10749 | 1.2 | -0.176 | -0.96
Rpn11 (Regulatory particle non-ATPase 11) | DRSC03422 | 1.94 (active) | 2.85 | 0.839
e (ebony) | DRSC16936 | -7.44 | -0.434 | 0.389
e (ebony) | DRSC24320 | 0.834 | 0.996 | -0.0385
yrt (yurt) | DRSC16559 | 0.0924 | 0.0434 | -0.0582
CG9646 | DRSC07342 | 0.955 | 0.204 | 1.31
unc (uncoordinated) | DRSC20511 | -1.26 | -1.68 | -1.21
unc (uncoordinated) | DRSC27962 | 0.657 | 0.244 | -0.387
CG2812 | DRSC04319 | 0.164 | 0.155 | -2.22
CG2812 | DRSC28384 | 0.629 | -0.351 | -0.538
CG9863 | DRSC28491 | -1.6 | 0.0209 | -0.242
CG15443 | DRSC00455 | -2.91 | -0.28 | -0.539
path (pathetic) | DRSC10361 | -0.032 | 0.16 | -1.17
Samuel | DRSC21731 | -0.0348 | -2.12 | -0.34
Samuel | DRSC23114 | 0.631 | 0.401 | -0.355
CG33325 | DRSC12699 | -0.66 | -1.59 | -9.31
Rrp1 (Recombination repair protein 1) | DRSC00784 | 1.01 | -1.17 | 0.748
Rrp1 (Recombination repair protein 1) | DRSC26575 | 0.233 | -0.238 | 0.461
Rif1 (Rap1 interacting factor 1) | DRSC05593 | -0.592 | 0.387 | -0.713
Hibch (3-hydroxyisobutyryl-CoA hydrolase) | DRSC15705 | 0.199 | -5.08 | -0.0303
Hibch (3-hydroxyisobutyryl-CoA hydrolase) | DRSC27536 | 0.519 | 0.6 | 0.404
vnc + CG42455 | DRSC09867 | 1.46 | -0.958 | 0.933
GstE2 (Glutathione S transferase E2) | DRSC06672 | -0.659 | -0.655 | -1.41
GstE2 (Glutathione S transferase E2) | DRSC29733 | 1.46 | -0.455 | 0.546
TwdlM (TweedleM) | DRSC15810 | -1.55 | 0.718 | -1.11
ND-20 (NADH dehydrogenase (ubiquinone) 20 kDa subunit) | DRSC20164 | -4.68 (active) | -10.1 | -0.318
sov (small ovary) | DRSC17930 | 3.77 (active) | 3.23 | 2.6
sov (small ovary) | DRSC24302 | 0.674 | 1.11 | 0.152
tyf (twenty-four) | DRSC18382 | 0.614 | -0.814 | -0.628
tyf (twenty-four) | DRSC26245 | -0.732 | 0.882 | 0.778
CG5535 | DRSC10514 | 0.523 | 1.27 | 0.628
CG5535 | DRSC29215 | -0.391 | -0.326 | -0.129
CG32301 | DRSC08613 | -3.2 | 0.377 | 0.0558
CG1299 | DRSC08300 | 0.0856 | -1.65 | -0.377
CheB74a (Chemosensory protein B 74a) | DRSC38835 | 0.678 | -0.151 | 0.422
ATP8A (ATPase 8A) | DRSC05421 | -0.895 | -6.26 | -1.41
ATP8A (ATPase 8A) | DRSC06643 | -0.0959 | 0.0639 | 0.838
ATP8A (ATPase 8A) | DRSC06644 | -2.8 | -3.03 | -1.95
Hsp68 (Heat shock protein 68) | DRSC16712 | -0.606 (active) | -2.1 | -6.37
Actn (alpha actinin) | DRSC17724 | -0.471 | -1.88 | -1.09
Actn (alpha actinin) | DRSC25653 | -0.552 | -2.31 | 0.291
Flad2 (Flavin adenine dinucleotide synthetase 2) | DRSC02531 | 0.23 | -1.28 | -0.632
Flad2 (Flavin adenine dinucleotide synthetase 2) | DRSC27627 | -2.11 | -2.16 | -0.0449
Surf6 (Surfeit 6) | DRSC15588 | 0.52 | 0.0239 | 0.948
Surf6 (Surfeit 6) | DRSC29437 | -1.7 (active) | -0.415 | -7.43
Surf6 (Surfeit 6) | DRSC41271 | -1.56 | -0.0137 | -0.427
